{
  "source": "patent US20200345021A1",
  "about": "“METHOD AND SYSTEM FOR ENHANCING THE EFFICACY USING IONIZED/A[…] PEROXIDE IN REDUCING MICROBIAL POPULATIONS, METHOD OF USE THEREOF” (priority 2019, published 2020)",
  "system": "tomato, spinach and cantaloupe",
  "conditions": "1 day after treatment, stored at 10° C.",
  "note": "Like-named read-outs stand apart in the source and are kept apart here.",
  "data": [
    {"compound": "OO", "note": "[H2O2, hydrogen peroxide]", "values": [
      {"measurement": "Firmness", "setting": "cantaloupe", "value": "6.51 +/− 0.48a kg"},
      {"measurement": "Firmness", "setting": "cantaloupe, listed as ionized/aerosolized hydrogen peroxide (H2O2)", "value": "no significant differences"},
      {"measurement": "Firmness", "setting": "spinach", "value": "9.87 +/− 1.94a kg"},
      {"measurement": "Firmness", "setting": "spinach, listed as ionized/aerosolized hydrogen peroxide (H2O2)", "value": "no significant differences"},
      {"measurement": "Firmness", "setting": "tomato", "value": "1.17 +/− 0.13a^ kg"},
      {"measurement": "Firmness", "setting": "tomato, listed as ionized/aerosolized hydrogen peroxide (H2O2)", "value": "no significant differences"}
    ]}
  ]
}
